Measurements reported in paper PMC12703749, “H2O2–Responsive Anticancer Prodrug: Synthesis, Precision Deuteration in Search of In Vivo Metabolites, and Activation Pathway” (Journal of Medicinal Chemistry, 2025).
≈ marks a conversion by molar mass, not a printed value.

Legend:
[1] = system: MDA-MB-468 cells; assay: Cell viability assay (CellTiter-Glo), MDA-MB-468; conditions: MDA-MB-468 (cancer), 48 h, 37 °C, n = 3
[2] = system: synthetic 49-mer DNA duplex (11); assay: DNA interstrand cross-link (ICL) formation, denaturing PAGE
[3] = system: MCF-10A cells; assay: Cell viability assay (CellTiter-Glo), MCF-10A; conditions: MCF-10A versus MDA-MB-468
[4] = Aqueous solubility; conditions: pH 7.4, 80% PBS and 20% MeCN, n = 3
[5] = system: MDA-MB-468 xenograft tumors; assay: In vivo efficacy in MDA-MB-468 xenograft model; conditions: 5 mg/kg IP

## CCc1cc(N(CCCl)CCCl)ccc1B(O)O
[1]
  IC50: 5.1 µM
[2]; 0.5 mM 10a, 1 mM H2O2, rt, n = 2
  incubation time to maximal ICL yields: approximately 15 h
[2]; read-out: EC50 of DNA ICL formation, with H2O2 (H2O2:10a = 2:1), rt, average of two experiments
  EC50: 3280 µM
[3]
  fold higher IC50 in MCF-10A than in MDA-MB-468: 3 fold
[4]
  solubility: 74 µM (≈ 21.5 µg/mL)
[5]; 8 weeks, IR = [1 – (mean treated/mean control tumor volume)] × 100
  tumor growth inhibition rate (IR): 89%
[5]; 5 days per week, week 8, n = 3
  mean final tumor volume: 264 ± 197 mm^3
[5]; end of treatment, n = 3
  tumor weight: 201 ± 134 mg
[5]; week 8
  final tumor volume relative to the control group: approximately 11%
